Measured values reported in patent US20250270296A1 (ACADEMIA SINICA, published 2025).

Target: S protein of SARS-CoV-2 variant B.1.526 (NY, Iota), full length, on pseudovirus (SARS-CoV-2, UniProt P0DTC2 14-1273)
Assay: cell-based or functional assay

B1: RBD-chAb-45 (antibody, V domains shown)
VH: EVQLQQSGPELVKPGASVKISCKTSGYTFTEYTIYWVKQSLGKSLEWIGGNNPNNDDTTYKQFFKGKATLTVDKSSSTAYMELRSLTSEDSAVYYCARDGYPYYYALDFWGQGTSVTVSS
VL: DILMTQSQKFMSTSVGDRVSVTCKSSQNVGTNVAWYQQKPGQSPKALIYSASYRYSGVPDHFTGSGSGTDFTLTISNVQSADLAEYFCQQYNNYPWTFGGGTKLDIK
SARS-CoV-2 pseudovirus IC50: 4.23 ng/mL
